# Test results published in publication PMC7998855 (Toxins, 2021).
# Like-named read-outs stand apart in the source and are kept apart here.
# Test system: differentiated Caco-2 (C2BBe1) cells
# [1] = 1 µg/mL DON + 10 ng/mL CER, 24 h, mean ± SD, 3 biological replicates
# [2] = 1 µg/mL DON, 24 h, mean ± SD, 3 biological replicates
# [3] = incubation with 10 µg/mL DON + 100 ng/mL CER, 24 h, transwell, LC-MS/MS, mean ± SD, 3 biological replicates
# [4] = incubation with 10 µg/mL DON alone, 24 h, transwell, LC-MS/MS, mean ± SD, 3 biological replicates
# [5] = two highest test concentrations, 24 h, overall
substance,measurement,setting,value
DON-3-glucuronide,Detection of DON-3-glucuronide as DON metabolite,"all samples (media, lysates), 24 h, LOD 0.7 ng/mL incubation medium, 0.1 ng/mL lysate measurement solution",not detected in any sample
DON-3-sulfate,"Ratio of DON-3-S to DON, basolateral medium",[1],0.76 ± 0.02%
same,"Ratio of DON-3-S to DON, cell lysates",[1],30.2 ± 1.4%
same,"Ratio of DON-3-S to DON, basolateral medium",[2],0.94 ± 0.10%
same,"Ratio of DON-3-S to DON, cell lysates",[2],22.4 ± 1.9%
same,DON-3-S concentration in basolateral compared to apical medium,"24 h, transwell, LC-MS/MS",approximately 6 times
same,DON-3-sulfate concentration in cell lysates,"incubation with 1 µg/mL DON + 10 ng/mL CER, 24 h, LC-MS/MS, mean ± SD, 3 biological replicates",0.038 ± 0.005 pg/µg cell protein
same,DON-3-sulfate concentration in basolateral medium,"incubation with 1 µg/mL DON + 10 ng/mL CER, 24 h, transwell, LC-MS/MS, mean ± SD, 3 biological replicates",0.6 ± 0.1 ng/mL
same,DON-3-sulfate concentration in cell lysates,"incubation with 1 µg/mL DON alone, 24 h, LC-MS/MS, mean ± SD, 3 biological replicates",0.028 ± 0.004 pg/µg cell protein
same,DON-3-sulfate concentration in basolateral medium,"incubation with 1 µg/mL DON alone, 24 h, transwell, LC-MS/MS, mean ± SD, 3 biological replicates",0.9 ± 0.1 ng/mL
same,DON-3-sulfate concentration in cell lysates,"incubation with 10 µg/mL DON + 100 ng/mL CER, 24 h, LC-MS/MS, mean ± SD, 3 biological replicates",0.33 ± 0.06 pg/µg cell protein
same,DON-3-sulfate concentration in apical medium,[3],0.9 ± 0.2 ng/mL
same,DON-3-sulfate concentration in basolateral medium,[3],5.4 ± 0.6 ng/mL medium
same,DON-3-sulfate concentration in cell lysates,"incubation with 10 µg/mL DON alone, 24 h, LC-MS/MS, mean ± SD, 3 biological replicates",0.25 ± 0.05 pg/µg cell protein
same,DON-3-sulfate concentration in apical medium,[4],1.1 ± 0.2 ng/mL
same,DON-3-sulfate concentration in basolateral medium,[4],6.7 ± 0.8 ng/mL medium
same,"Ratio of DON-3-S in relation to DON, basolateral medium",[5],roughly 0.9%
same,"Ratio of DON-3-S to DON, cell lysates",[5],20-30%
DON-15-glucuronide,Detection of DON-15-glucuronide as DON metabolite,"no analytical standard, at the expected retention time",no peaks were observed
DON-15-sulfate,Detection of DON-15-sulfate as DON metabolite,"all samples (media, lysates), 24 h, LOD 0.2 ng/mL incubation medium, 0.03 ng/mL lysate measurement solution",not detected in any sample
